Anti-infective test results gathered from many reports (values: NIAID ChemDB through PubChem).

Shared fields: cytotoxicity tests; cell line: H9; read-out: CC50

CCn: concentration that lowers growth or viability of the cells by n%. Lines come from different laboratories, so protocols vary. An empty or dashed field is not shown.

structure,read by,value
O=C1O[C@@H]2[C@@H](OC(=O)c3cc(O)c(O)c(O)c3-c3c1cc(O)c(O)c3O)[C@@H](O)O[C@@H]1COC(=O)c3cc(O)c(O)c(O)c3-c3c(O)c(O)c4oc(=O)c5c(c(O)c(O)c6oc(=O)c3c4c65)-c3c(cc(O)c(O)c3O)C(=O)O[C@@H]21,,>20 µg/mL
Nc1nc2c(ncn2[C@H]2C=C[C@@H](CO)C2)c(=O)[nH]1,,>2000 µM
COc1cc(C(=O)OC(=O)[C@]23CC[C@@H](C(C)C)[C@@H]2[C@H]2CC[C@@H]4[C@@]5(C)CC[C@H](OC(=O)c6cc(OC)c(OC)c(OC)c6)C(C)(C)[C@@H]5CC[C@@]4(C)[C@]2(C)CC3)cc(OC)c1OC,,53 µM
CC(=O)OC[C@]12[C@H](OC(C)=O)[C@H](OC(C)=O)[C@@H]3[C@@H](OC(=O)c4ccccc4)[C@@]14O[C@@]3(C)COC(=O)c1cccnc1[C@@H](C)[C@H](C)C(=O)O[C@@H]([C@H](OC(C)=O)[C@@H]2OC(C)=O)C4(C)O,,56.8 µg/mL
CC1(C)Oc2ccc3ccc(=O)oc3c2[C@@H](OC(=O)C23CCC(C)(C(=O)O2)C3(C)C)[C@@H]1OC(=O)C12CCC(C)(C(=O)O1)C2(C)C,,>32 µM
CCOC(=O)c1cc(C(=O)c2ccc3ccccc3c2)n2ccc(C(=O)c3ccncc3)cc12,MTT,137.3 µM
CCN(CC)CCNc1nc(NCCCNC(=O)c2ccc(C(=O)NCCCNc3nc4c(c(NCCN(CC)CC)n3)CC=CC4)cc2)nc2c1CC=CC2,,50 µM
O=C1OCC2OC(O)C(O)C(O)C2OC(=O)c2cc(O)c(O)c(O)c2-c2c(O)c(O)c3oc(=O)c4c(c(O)c(O)c5oc(=O)c2c3c54)-c2c1cc(O)c(O)c2O,,>20 µg/mL
CC(C)[C@@H]1CC[C@]2(C(=O)OCc3ccccc3)CC[C@]3(C)[C@H](CC[C@@H]4[C@@]5(C)CC[C@H](O)C(C)(C)[C@@H]5CC[C@]43C)[C@@H]12,,>180 µM
COc1cc(CBr)c(-c2c(CBr)cc(OC)c(OC)c2OC)c(OC)c1OC,,150 µM
CC1(C)CC[C@]2(C(=O)O)CC[C@]3(C)C(=CCC4[C@@]5(C)CC[C@H](OC(=O)CCCC(=O)O)C(C)(C)C5CC[C@]43C)C2C1,cell count,14.6 µg/mL
NCCCC(NC(=O)CCCCCCCCN=C(N)N)C(O)CCCCCCCCN=C(N)N,,>1000 µg/mL
C=C(COC(=O)CC(C)(C)CC(=O)O)[C@@H]1CC[C@]2(COC(=O)CC(C)(C)CC(=O)O)CC[C@]3(C)[C@H](CC[C@@H]4[C@@]5(C)CC[C@H](OC(=O)CC(C)(C)CC(=O)O)C(C)(C)[C@@H]5CC[C@]43C)[C@@H]12,,17.5 µM
O=C(O)CCNC(=O)CNC(=O)CNC(=O)CNC(=O)c1cc(C(=O)c2ccc3ccccc3c2)n2ccc(C(=O)c3ccccc3)cc12,MTT,137.4 µM
CC1=CC(=O)O[C@@H]1[C@@]1(C)C[C@H]2OC(=O)CC3C(C)C(=O)C(O)=C1[C@]32CO,,>287 µM
CC(=O)O[C@@H]1[C@@H]2[C@@H](OC(C)=O)[C@@]34O[C@@]2(C)COC(=O)c2cnccc2[C@@H](C)[C@@](C)(O)C(=O)O[C@@H]([C@H](OC(C)=O)[C@H](OC(C)=O)[C@@]3(COC(=O)c2ccoc2)[C@@H]1OC(C)=O)C4(C)O,,>100 µg/mL
NC(=O)n1c(O)c(C(=O)c2cccs2)c2cc(Cl)ccc21,trypan blue,96 µM
C=C(C)[C@@H]1CC[C@]2(C(=O)NCCCCCCCC(=O)N[C@@H](CC(C)C)[C@@H](O)CC(=O)O)CC[C@]3(C)[C@H](CC[C@@H]4[C@@]5(C)CC[C@H](O)C(C)(C)[C@@H]5CC[C@]43C)[C@@H]12,,>2.7 µM
O=C(O)C[C@@H]1C(=O)O[C@H]2[C@@H]3OC(=O)c4cc(O)c(O)c(O)c4-c4c(cc(O)c(O)c4O)C(=O)OC[C@H]2O[C@@H](OC(=O)c2cc(O)c(O)c(O)c2)[C@@H]3OC(=O)c2cc(O)c(O)c3c2[C@H]1[C@H](O)C(=O)O3,,>20 µg/mL
CCCNc1nc(NCCCNC(=O)c2cccc(C(=O)NCCCNc3nc4c(c(NCCC)n3)CC=CC4)c2)nc2c1CC=CC2,,6.3 µM
CC1(C)CC[C@]2(C(=O)O)CC[C@]3(C)C(=CC[C@@H]4[C@@]5(C)CC[C@H](O)C(C)(C)[C@@H]5CC[C@]43C)[C@@H]2C1,cell count,21.8 µg/mL
O=c1oc(-c2ccc(OCc3ccccn3)cc2)cc(O)c1SCCc1ccccc1,,54.7 µM
CCCCCCCCCCOC[C@H](CO[C@@]1(C(=O)O)C[C@H](OS(=O)(=O)O)[C@@H](NC(C)=O)[C@H]([C@H](OS(=O)(=O)O)[C@@H](COS(=O)(=O)O)OS(=O)(=O)O)O1)OCCCCCCCCCC,,>200 µM
CC(S)C(=O)NCC(=O)O,,~1000 µg/mL
CC(C)CCC[C@@H](C)[C@H]1CCC2C3CCC4C[C@@H](O[C@H]5O[C@H](COS(=O)(=O)[O-])[C@@H](OS(=O)(=O)[O-])[C@H](OS(=O)(=O)[O-])[C@@H]5O[C@H]5O[C@H](COS(=O)(=O)[O-])[C@@H](OS(=O)(=O)[O-])[C@H](O[C@H]6O[C@H](COS(=O)(=O)[O-])[C@@H](OS(=O)(=O)[O-])[C@H](O[C@H]7O[C@H](COS(=O)(=O)[O-])[C@@H](OS(=O)(=O)[O-])[C@H](OS(=O)(=O)[O-])[C@@H]7OS(=O)(=O)[O-])C6OS(=O)(=O)[O-])[C@@H]5OS(=O)(=O)[O-])CC[C@]4(C)C3CC[C@@]21C,,>800 µg/mL
CC1(C)CC[C@]2(C(=O)O)CC[C@]3(C)[C@H](CC[C@@H]4[C@@]5(C)CC[C@H](OC(=O)CC6(CC(=O)O)CCCC6)C(C)(C)[C@@H]5CC[C@]43C)[C@@H]2C1,cell count,10.1 µg/mL
CCN(CC)CCNc1ccnc(NCCCNC(=O)c2cccc(C(=O)NCCCNc3nccc(NCCN(CC)CC)n3)c2)n1,,>50 µM
COc1cc2c(c(O)c1OC)-c1c(cc(OC)c(OC)c1O)C[C@H](C)[C@H](C)C2,MTT,40.46 µM
C[C@@H]1O[C@H]2O[C@H]3[C@@H](OC[C@@H](O)[C@@H]3O)OC(=O)[C@]34CCC(C)(C)C[C@@]3(C)C3=CC[C@@]5(C)[C@@](C)(CC[C@@H]6[C@](C)(CO)[C@@H](O[C@@H]7O[C@H](CO)[C@@H](O)[C@H](O)[C@H]7O[C@@H]7O[C@@H](C(=O)C[C@](C)(O)CC(=O)O[C@@H]1[C@@H](O[C@@H]1OC[C@@H](O)[C@H](O)[C@H]1O)[C@H]2O)[C@H](O)[C@H](O)[C@H]7O)[C@@H](O)C[C@@]65C)[C@]3(C)CC4,,59 µg/mL
CCCCCCCCCCCCCCOC[C@H](CO[C@@]1(C(=O)O)C[C@H](OS(=O)(=O)O)[C@@H](NC(C)=O)[C@H]([C@H](OS(=O)(=O)O)[C@@H](COS(=O)(=O)O)OS(=O)(=O)O)O1)OCCCCCCCCCCCCCC,,>200 µM
CCc1cc(NCc2nc3c(C)ccc(C)c3o2)c(=O)[nH]c1C,,>0.06 µM
CCCCCCCCCCCCCCOC[C@H](CO[C@]1(C(=O)O)C[C@H](OS(=O)(=O)O)[C@@H](NC(C)=O)[C@H]([C@H](OS(=O)(=O)O)[C@@H](COS(=O)(=O)O)OS(=O)(=O)O)O1)OCCCCCCCCCCCCCC,,>200 µM
CC1(C)Oc2ccc3ccc(=O)oc3c2[C@H](OC(=O)C23CCC(C)(C(=O)O2)C3(C)C)[C@H]1OC(=O)C12CCC(C)(C(=O)O1)C2(C)C,,>6.4 µM
CCc1cc(CCc2nc3ccccc3o2)c(=O)[nH]c1C,,>0.06 µM
CC1(C)CC[C@]2(C(=O)O)CC[C@]3(C)[C@H](CC[C@@H]4[C@@]5(C)CC[C@H](O)C(C)(C)[C@@H]5CC[C@]43C)[C@@H]2C1,cell count,17.4 µg/mL
COP(=O)(c1cc(C)cc(CCC#N)c1)c1c(C(N)=O)[nH]c2ccc(Cl)cc12,MTS,31.3 µM
C=C(C)[C@@H]1CC[C@]2(COC(=O)CC(C)(C)CC(=O)O)CC[C@]3(C)[C@H](CC[C@@H]4[C@@]5(C)CC[C@@H](OC(=O)CC(C)(C)CC(=O)O)C(C)(C)[C@@H]5CC[C@]43C)[C@@H]12,,33.6 µM
CC1(C)CC[C@]2(CNC(=O)CC3(CC(=O)O)CCCC3)CC[C@]3(C)C(=CC[C@@H]4[C@@]5(C)CC[C@H](OC(=O)CC6(CC(=O)O)CCCC6)C(C)(C)[C@@H]5CC[C@]43C)[C@@H]2C1,cell count,19.5 µg/mL
[N-]=[N+]=NCCOCCOCCOc1cc(C2(C(F)(F)F)N=N2)ccc1C(=O)NCCOCCOCCNC(=O)c1cc(C(=O)c2ccc3ccccc3c2)n2ccc(C(=O)c3ccccc3)cc12,MTT,168.5 µM
C=C(C)[C@@H]1CC[C@]2(C(=O)O)CC[C@]3(C)[C@H](CC[C@@H]4[C@@]5(C)CC[C@H](OC(=O)CC(C)(C)C(=O)O)C(C)(C)[C@@H]5CC[C@]43C)[C@@H]12,,>7 µM
BrCc1cc(OCc2ccccc2)c(OCc2ccccc2)c(OCc2ccccc2)c1-c1c(CBr)cc(OCc2ccccc2)c(OCc2ccccc2)c1OCc1ccccc1,,>100 µM
CCN(CC)CCNc1ccnc(NCCCNC(=O)c2ccc(C(=O)NCCCNc3nccc(NCCN(CC)CC)n3)cc2)n1,,>50 µM
O=C(CCCCC1SC[C@@H]2NC(=O)N[C@H]12)NCCOCCOCCOc1cc(C2(C(F)(F)F)N=N2)ccc1C(=O)NCCOCCOCCNC(=O)c1cc(C(=O)c2ccc3ccccc3c2)n2ccc(C(=O)c3ccccc3)cc12,MTT,160.1 µM
C=C(C)[C@@H]1CC[C@]2(C(=O)OC(=O)N3CCOCC3)CC[C@]3(C)[C@H](CC[C@@H]4[C@@]5(C)CC[C@H](O)C(C)(C)[C@@H]5CC[C@]43C)[C@@H]12,,11.4 µM
CC(=O)OC[C@]12[C@H](OC(C)=O)[C@H](OC(C)=O)[C@@H]3[C@@H](OC(C)=O)[C@@]14O[C@@]3(C)COC(=O)c1cnccc1[C@@H](C)[C@@](C)(O)C(=O)O[C@@H]([C@H](OC(=O)c1ccoc1)[C@@H]2OC(C)=O)C4(C)O,,>100 µg/mL
CCN(CC)CCNc1nc(NCCCNC(=O)c2cccc(C(=O)NCCCNc3nc4c(c(NCCN(CC)CC)n3)CC=CC4)c2)nc2c1CC=CC2,,>50 µM
COc1cc(C=O)c(-c2c(C=O)cc(OC)c(OC)c2OC)c(OC)c1OC,,10 µM
COc1cc(=O)oc2c3c(ccc12)OC(C)(C)[C@H](OC(=O)C12CCC(C)(C(=O)O1)C2(C)C)[C@@H]3OC(=O)C12CCC(C)(C(=O)O1)C2(C)C,,>153 µM
CCN(CC)CCNc1ccnc(NCCCNC(=O)CC(=O)NCCNc2nccc(NCCN(CC)CC)n2)n1,,>50 µM
O=C(OCCOCCOCCNC(=O)c1cc(C(=O)c2ccc3ccccc3c2)n2ccc(C(=O)c3ccccc3)cc12)c1ccccc1,MTT,125.4 µM
CC1=CCC[C@H]2[C@](C)(Cc3cc(O)ccc3O)[C@@H](C)CC[C@]12C,,>5 µg/mL
C=C(C)[C@@H]1CC[C@]2(CNC(=O)CC(C)(C)CC(=O)O)CC[C@]3(C)[C@H](CC[C@@H]4[C@@]5(C)CC[C@H](NC(=O)CC(C)(C)CC(=O)O)C(C)(C)[C@@H]5CC[C@]43C)[C@@H]12,,20.6 µM
COc1cc2ccc(=O)oc2c2c1OC(C)(C)[C@H](OC(=O)C13CCC(C)(C(=O)O1)C3(C)C)[C@@H]2OC(=O)C12CCC(C)(C(=O)O1)C2(C)C,,>153 µM
CCCCCCCCCCCCCCCCCCCCCCOCC(C)(COCCCCCCCCCCCCCCCCCCCCCC)CO[C@]1(C(=O)O)C[C@H](OS(=O)(=O)O)[C@@H](NC(C)=O)[C@H]([C@H](OS(=O)(=O)O)[C@@H](COS(=O)(=O)O)OS(=O)(=O)O)O1,MTT,>100 µg/mL
O=C(O)C1=C[C@@H](OC(=O)c2cc(O)c(O)c(O)c2)[C@@H](OC(=O)c2cc(O)c(O)c(O)c2)[C@H](OC(=O)c2cc(O)c(O)c(O)c2)C1,,>20 µg/mL

8 of the rows above, restated:

structure | read by | value
NC(=O)n1c(O)c(C(=O)c2cccs2)c2cc(Cl)ccc21 | trypan blue | 96 µM
COc1cc(C=O)c(-c2c(C=O)cc(OC)c(OC)c2OC)c(OC)c1OC |  | 10 µM
COc1cc(C(=O)OC(=O)[C@]23CC[C@@H](C(C)C)[C@@H]2[C@H]2CC[C@@H]4[C@@]5(C)CC[C@H](OC(=O)c6cc(OC)c(OC)c(OC)c6)C(C)(C)[C@@H]5CC[C@@]4(C)[C@]2(C)CC3)cc(OC)c1OC |  | 53 µM
CCN(CC)CCNc1nc(NCCCNC(=O)c2ccc(C(=O)NCCCNc3nc4c(c(NCCN(CC)CC)n3)CC=CC4)cc2)nc2c1CC=CC2 |  | 50 µM
Nc1nc2c(ncn2[C@H]2C=C[C@@H](CO)C2)c(=O)[nH]1 |  | >2000 µM
COP(=O)(c1cc(C)cc(CCC#N)c1)c1c(C(N)=O)[nH]c2ccc(Cl)cc12 | MTS | 31.3 µM
COc1cc2c(c(O)c1OC)-c1c(cc(OC)c(OC)c1O)C[C@H](C)[C@H](C)C2 | MTT | 40.46 µM
O=C(OCCOCCOCCNC(=O)c1cc(C(=O)c2ccc3ccccc3c2)n2ccc(C(=O)c3ccccc3)cc12)c1ccccc1 | MTT | 125.4 µM